Pooled drug test results. Numbers come from NIAID ChemDB, via PubChem.

Common to all: tests in culture; agent: Poliovirus; cell line: HeLa; read-out: EC50

Rows are shuffled and stem from different studies. ECn is the concentration giving n% inhibition of infection, replication or growth. Blank or dashed fields: not listed here.

SMILES | strain | result
N#Cc1cncc([C@H]2O[C@H](CO)[C@@H](O)[C@@H]2O)c1 | - | ≥100 µg/mL
NC1CCCON2CCc3c([nH]c4ccccc34)[C@H]12 | TYPE 1 | 7 µg/mL
NC(=O)c1cncc([C@@H]2O[C@H](CO)[C@H](O)[C@@H]2O)c1 | - | ≥100 µg/mL
CSCC1=C[C@@H](n2cnc3c(N)ncnc32)[C@H](O)[C@@H]1O | TYPE 1 | >200 µg/mL
Nc1ccn(C(CF)CCCO)c(=O)n1 | TYPE 1 | >400 µg/mL
Nc1ncnc2c1ncn2C[C@H](O)CO | TYPE 1 | >400 µg/mL
CC(=O)Nc1nc2c(CC(O)CO)nc(C)n2c(=O)[nH]1 | TYPE 1 | >400 µg/mL
NC1CSCON2CCc3c([nH]c4ccccc34)[C@H]12 | TYPE 1 | 0.7 µg/mL
OC[C@H]1O[C@@H](c2cncc(Br)c2)[C@@H](O)[C@@H]1O | - | ≥100 µg/mL
CC(=O)OCCOCN1C(N)=CC(N)=NS1(=O)=O | TYPE 1 | >400 µg/mL
CCOc1cc(O)c(C(=O)/C=C/c2ccc(OC)cc2)c(OC)c1 | TYPE 1 | >3 µg/mL
CC(=O)Nc1nc2c(CC(O)CO)ncn2c(=O)[nH]1 | TYPE 1 | >200 µg/mL
Cc1cn(C(CF)CCCO)c(=O)[nH]c1=O | TYPE 1 | >400 µg/mL
C=C(N=CC)c1nc(-c2ccccc2)n([C@@H]2O[C@H](CO)[C@@H](O)[C@H]2O)n1 | TYPE 1 | >200 µg/mL
Nc1nc(F)nc2c1ncn2[C@@H]1C=C(CO)[C@@H](O)[C@H]1O | TYPE 1 | ≥40 µg/mL
CO[C@H](CO)[C@@H](O)CCn1cc(C)c(=O)[nH]c1=O | TYPE 1 | >400 µg/mL
CC(=O)OCCOCN1C=CC(=O)N(COCCOC(C)=O)S1(=O)=O | TYPE 1 | >400 µg/mL
Nc1nccc2c1ncn2[C@@H]1C[C@H](CO)[C@@H](O)[C@H]1O | TYPE 1 | >400 µg/mL
OC[C@H]1O[C@H](c2cncc(Br)c2)[C@@H](O)[C@H]1O | - | ≥100 µg/mL
CC(=O)OCCOCN1C(=N)/C(=C(\C)O)C(N)=NS1(=O)=O | TYPE 1 | >400 µg/mL
Nc1ncnc2c1ncn2[C@@H]1C=C(CO)[C@@H](O)C1 | TYPE 1 | >400 µg/mL
CCOC(=O)C1=CN(COCCOC(C)=O)S(=O)(=O)N=C1N | TYPE 1 | >400 µg/mL
Nc1ncnc2c([C@@H]3O[C@H](CSCCC(N)C(=O)O)C[C@H]3O)[nH]nc12 | TYPE 1 | >20 µg/mL
NC(=S)c1cncc([C@@H]2O[C@H](CO)[C@@H](O)[C@@H]2O)c1 | - | ≥100 µg/mL
CO[C@H](CO)[C@@H](O)CCn1cnc2c(N)ncnc21 | TYPE 1 | >400 µg/mL
Nc1ncnc2c1ncn2[C@@H]1C=C(CCl)[C@@H](O)[C@H]1O | TYPE 1 | >40 µg/mL
Cc1nc(CC(O)CO)c2nc[nH]c(=O)n12 | TYPE 1 | >400 µg/mL
CC=NC(=N)c1nc(-c2ccc(C)cc2)n(COCCO)n1 | TYPE 1 | >200 µg/mL
Nc1ccn(CC[C@H](O)CCO)c(=O)n1 | TYPE 1 | >400 µg/mL
CC=NC(=N)c1nc(-c2ccccc2)n(Cc2ccccc2)n1 | TYPE 1 | >10 µg/mL
Nc1ncnc2c1ncn2[C@@H]1C[C@H](COP(=O)(O)O)[C@@H](O)[C@H]1O | TYPE 1 | >400 µg/mL
Cc1cn([C@H]2O[C@H](CO)[C@@H](N=[N+]=[N-])[C@H]2F)c(=O)nc1N | TYPE 1 | >400 µg/mL
NC(=S)c1cncc([C@H]2O[C@H](CO)[C@@H](O)[C@@H]2O)c1 | - | ≥100 µg/mL
C/C(O)=C1\C(=N)N(COCCO)S(=O)(=O)N=C1N | TYPE 1 | >400 µg/mL
Nc1ncnc2c1ncn2C[C@H](O)CO | TYPE 1 | >200 µg/mL
COc1ccc2[nH]c3c(c2c1)CCN1OCSCC(N)[C@@H]31 | TYPE 1 | 0.02 µg/mL
C=CCc1nc(C)n2c(=O)[nH]cnc12 | TYPE 1 | >400 µg/mL
CO[C@H](CO)[C@@H](O)CCn1ccc(N)nc1=O | TYPE 1 | >400 µg/mL
Nc1ncnc2c1ncn2[C@@H]1C=C(CO)[C@@H](O)[C@@H]1O | TYPE 1 | >400 µg/mL
CC=NC(=N)c1nc(-c2ccc(C)cc2)n(Cc2ccccc2)n1 | TYPE 1 | >10 µg/mL
N#Cc1cncc([C@@H]2O[C@H](CO)[C@H](O)[C@@H]2O)c1 | - | ≥100 µg/mL

The first 6 rows once more:

{"SMILES": "N#Cc1cncc([C@H]2O[C@H](CO)[C@@H](O)[C@@H]2O)c1", "result": "≥100 µg/mL"}
{"SMILES": "NC1CCCON2CCc3c([nH]c4ccccc34)[C@H]12", "strain": "TYPE 1", "result": "7 µg/mL"}
{"SMILES": "NC(=O)c1cncc([C@@H]2O[C@H](CO)[C@H](O)[C@@H]2O)c1", "result": "≥100 µg/mL"}
{"SMILES": "CSCC1=C[C@@H](n2cnc3c(N)ncnc32)[C@H](O)[C@@H]1O", "strain": "TYPE 1", "result": ">200 µg/mL"}
{"SMILES": "Nc1ccn(C(CF)CCCO)c(=O)n1", "strain": "TYPE 1", "result": ">400 µg/mL"}
{"SMILES": "Nc1ncnc2c1ncn2C[C@H](O)CO", "strain": "TYPE 1", "result": ">400 µg/mL"}